Experimental findings from US20190218170A1, “BRANCHED TRIALKYLAMINE PRECURSORS, INTERMEDIATES, PRODUCTS MADE THEREFROM AND PROCESSES OF MANUFACTURE” (priority 2018, published 2019) are described below.

Data set [1] is described as follows: Stain removal in cold water, brightness L*. Particulars: Red lipstick; additive 0.05% active in wash solution of 12% LAE7 base formulation; 20° C. As to the method:
Amine oxides with linear and branched hydrophobes were compared in a screen for stain removal in cold water. Simple laundry liquid formulations were made that included only surfactants and builder.
Standard stain swatches were purchased from Testfabrics, Inc. (West Pittston, Pa.). STC/CFT PC-S-216 is diluted red lipstick on poly/cotton (65/35), and STC/CFT PC-S-132 is high discriminative sebum (synthetic) with pigment on poly/cotton, both made by Center for Testmaterials BV (CFT; The Netherlands). The swatches were pre-cut into 2 inch squares. The test formulation was diluted with DI water to 0.06% total surfactant to make the wash solution. Additives were added at a final concentration of 0.05% active in the wash solution. Stained fabric swatches were added to the wash solution, washed and rinsed at 20° C., and air-dried. The average swatch brightness (L*) for each treatment, and standard deviation, are reported for 3 replicates. […] All treatments are brighter than the untreated stain swatches. The nonionics NPE and LAE7 removed the lipstick and sebum stains to the same brightness.

The nature of data set [2]: Stain removal in cold water, brightness L*. Particulars: Sebum; additive 0.05% active in wash solution of 12% LAE7 base formulation; 20° C.

Structures are written as SMILES.

On to `CCCCC(CC)CC(C)C[N+](C)(C)[O-]` (centres unmarked) [Example 65, 4-ethyl-N,N-2-trimethyloctan-1-amine oxide], for which the results for the “avg L*” value in data set [1] and in data set [2] were 76.3 and 72.7, respectively.
